Pooled drug test results. Numbers come from NIAID ChemDB, via PubChem.

All rows: growth or infection tests; species: HIV-1; endpoint: EC50

ECn is the concentration giving n% inhibition of infection, replication or growth. An empty or dashed field is not shown. Neighbouring rows are from separate reports.

SMILES,mutations,conditions,read by,cell line,strain,result
C#Cc1ccc(Nc2nccc(Oc3c(C)cc(-c4cn(-c5cccc(C(=O)OC)c5)nn4)cc3C)n2)cc1,Y188L,,MTT,MT-4,IIIB,>242 µM
C=CC(C)(C)c1cc2cc(C[C@@H](O)C(C)(C)O)c(O)cc2oc1=O,,,MTT / syncytia,C8166,,0.68 µM
Cc1cn([C@H]2C[C@H](N=[N+]=[N-])[C@@H](CO)O2)c(=O)[nH]c1=O,Y188L,,MTT,MT-4,IIIB,0.004 µM
Cc1cn([C@H]2C[C@H](N=[N+]=[N-])[C@@H](CO)O2)c(=O)[nH]c1=O,Y188L,,MTT,MT-4,IIIB,0.007 µM
CCC[C@@]1(CCc2ccccc2)CC(O)=C([C@H](CC)c2cccc(NS(=O)(=O)c3ccc(C(F)(F)F)cn3)c2)C(=O)O1,L10F M46I I54V V82A,,p24 / luminescence,MT-4,NL4-3,>1 µM
Nc1nc2c(ncn2COCCO)c(=O)[nH]1,V75I,,GFP,PHA-activated CD4+ lymphoblasts,CXCR4-tropic HIV pseudovirus,>300 µM
Cc1cn([C@H]2C=C[C@@H](CO)O2)c(=O)[nH]c1=O,,,β-galactosidase / absorbance,MAGIC-5A,NL4-3,0.8 µM
Cc1cc(N=C/C=C/c2ccccc2)ccc1N1C(=O)c2ccc(Cl)cc2C1=O,,,MTT / absorbance,MT-4,IIIB,0.235 µM
Cc1cn([C@H]2C[C@H](N=[N+]=[N-])[C@@H](CO)O2)c(=O)[nH]c1=O,,,MTT / syncytia,C8166,,0.01987 µM
Cc1ccc(/C=C/c2cc(C)c(Oc3ccnc(Nc4ccc(C#N)cc4)n3)c(C)c2)cc1,,,MTT,MT-4,IIIB,0.052 µM
CCOP(=O)(COc1ccc(C[C@H](NC(=O)O[C@H]2CO[C@H]3OCC[C@H]32)[C@H](O)CN(CC(C)C)S(=O)(=O)c2ccc(OC)cc2)cc1)OCC,PLV-P31 LVP-resistant mutant,,ATP,MT-2,IIIB,0.0048 µM
Cc1cc(NC(=S)Cc2ccc3ccccc3c2)ccc1N1C(=O)c2ccc(Cl)cc2C1=O,,,MTT / absorbance,MT-4,IIIB,0.097 µM
O=c1[nH]cnc2c1ncn2[C@H]1CC[C@@H](CO)O1,,,cytopathic effect,MT-4,IIIB,24.76 µM
C#Cc1ccc(Nc2nccc(Oc3c(C)cc(-c4cn(Cc5cccc(C(=O)OC)c5)nn4)cc3C)n2)cc1,,,MTT,MT-4,RES056,>4.78 µM
CC(C)C(C)/C=C/[C@@H](C)[C@H]1CCC2C3=C[C@@H](O)[C@@]4(O)C[C@@H](O)CC[C@]4(C)C3CC[C@@]21C,,,cytopathic effect / microscopy,MT-4,,>15.6 µM
C#Cc1ccc(Nc2nccc(Oc3c(C)cc(-c4cn(CC(=O)Nc5ccc(Br)cc5)nn4)cc3C)n2)cc1,Y181C,,MTT,MT-4,IIIB,>19.78 µM
Cc1ccnc2c1NC(=O)c1cccnc1N2C1CC1,,,β-galactosidase,MAGI,,0.088 µM
Cc1cn([C@H]2C=C[C@H](CO)O2)c(=O)[nH]c1=O,,,MTT / syncytia,MT-4,IIIB,>10 µM
Cc1cn([C@H]2C[C@H](N=[N+]=[N-])[C@@H](CO)O2)c(=O)[nH]c1=O,,,cytopathic effect / XTT,PBMC,CLADE B,0.001 µM
Cc1cn([C@H]2C[C@H](N=[N+]=[N-])[C@@H](CO)O2)c(=O)[nH]c1=O,,,virus yield,CEM,LAV-1,<0.1 µM
COc1cc2cc3c(cc2oc1=O)OC(C)(C)C=C3,,,MTT / syncytia,C8166,,3.19 µM
Cc1cn([C@@H]2O[C@@H](CO)[C@H](N=[N+]=[N-])[C@@H]2O)c(=O)[nH]c1=O,,,MTT / syncytia,MT-4,IIIB,>1000 µM
C=C1[C@H](CO)[C@@H](O)C[C@@H]1n1cnc2c(=O)[nH]c(N)nc21,K103N,,MTT,MT-4,IIIB,0.003 µM
Cc1cc(C#Cc2ccc(C(F)(F)F)cc2)cc(C)c1Oc1ccnc(Nc2ccc(C#N)cc2)n1,L100I,,MTT,MT-4,IIIB,>7.353 µM
C[C@H](CC(=O)C[C@@H](C)[C@H]1CC(=O)[C@@]2(C)C3=C(C(=O)C[C@]12C)[C@@]1(C)CCC(=O)C(C)(C)[C@@H]1C[C@@H]3O)C(=O)O,,,cytopathic effect / microscopy,MT-4,,>1000 µM
C#C[C@]1(CO)O[C@@H](n2cnc3c(N)nc(F)nc32)CC1O,,,β-galactosidase / absorbance,MAGIC-5A,NL4-3,0.002 µM
Cc1cn([C@H]2C[C@H](N=[N+]=[N-])[C@@H](CO)O2)c(=O)[nH]c1=O,8374-P62 GS-8374-resistant,,ATP,MT-2,IIIB,0.312 µM
Cc1c(-c2cnccn2)ssc1=S,,,MTT / p24,CEM,IIIB,~14 µM
Cc1cc(C#Cc2ccccc2N)cc(C)c1Oc1ccnc(Nc2ccc(C#N)cc2)n1,F227L + V106A,,MTT,MT-4,IIIB,>8.88 µM
COC(=O)N[C@H](C(=O)N[C@@H](Cc1ccccc1)[C@@H](O)CN(Cc1ccc(-c2ccccn2)cc1)NC(=O)[C@@H](NC(=O)OC)C(C)(C)C)C(C)(C)C,L10I K14R L33I M36I M46I F53I K55R I62V L63P A71V G73S V82A L90M I93L,"clinical isolate, multidrug-resistant",p24 / luciferase,PBMC,,0.45 µg/mL
CC(=O)Nc1ccc(OC(=O)c2ccc(N=C(N)N)cc2)cc1,,,XTT / p24,MT-4,,50 µg/mL
CC(C)OC(=O)OCOP(=O)(CO[C@H](C)Cn1cnc2c(N)ncnc21)OCOC(=O)OC(C)C,A114S/A502V,,GFP,TZM-gfp,NL4-3,0.02 µM
Cc1cc(C#Cc2ccccc2)cc(C)c1Oc1ccnc(NC2CCN(Cc3ccc(S(N)(=O)=O)cc3)CC2)n1,Y188L,,MTT,MT-4,IIIB,0.123 µM
O=c1[nH]cnc2c1ncn2[C@H]1CC[C@@H](CO)O1,,,ELISA,PBMC,4718,3 µM
COc1cc2oc(=O)ccc2cc1C[C@@H](OC)C(C)(C)O,,,MTT / syncytia,C8166,,6.28 µM
COc1ccc(C=Nc2ccc(N3C(=O)c4ccc(Cl)cc4C3=O)c(C)c2)cc1,,,MTT / absorbance,MT-4,IIIB,0.138 µM
C[C@H](CCC=C(CO)CO)[C@H]1C[C@H](O)[C@@]2(C)C3=CC[C@H]4C(C)(C)C(=O)CC[C@]4(C)C3=CC[C@]12C,,,cytopathic effect / microscopy,MT-4,,~7.8 µM
O=C(Nc1nc2ccc(C(F)(F)F)cc2s1)c1ccc([N+](=O)[O-])s1,,pseudotyped,flow cytometry,CEM-GXR,NL4-3,0.5 µM
CO[P@](=O)(c1cc(C)cc(/C=C/C#N)c1)c1c(C(N)=O)[nH]c2ccc(Cl)cc12,,,,MT-2,BH10,0.0011 µM
Cc1cc(NC(=S)c2ccc(Cl)cc2)ccc1N1C(=O)c2ccc(Cl)cc2C1=O,,,MTT / absorbance,MT-4,IIIB,0.18 µM
C#Cc1ccc(Nc2nccc(Oc3c(C)cc(-c4cn(Cc5ccc(C(N)=O)cc5)nn4)cc3C)n2)cc1,,,MTT,MT-4,RES056,>13.84 µM
Cc1ccc(C(=S)Nc2ccc(N3C(=O)c4ccc(Cl)cc4C3=O)c(C)c2)cc1,,,MTT / absorbance,MT-4,IIIB,0.083 µM
Cc1cc(C#Cc2cccc(N)c2)cc(C)c1Oc1ccnc(NC2CCN(c3cccc(C(N)=O)c3)CC2)n1,,,MTT,MT-4,IIIB,0.024 µM
CC(C)[C@@H](C)/C=C/[C@@H](C)[C@H]1CC[C@H]2C3=CC=C4C[C@@H](O)CC[C@]4(C)[C@H]3CC[C@]12C,,,cytopathic effect / microscopy,MT-4,,>1000 µM
CC(C)=CCc1cc2ccc(=O)oc2c(CC=C(C)C)c1O,,,MTT / syncytia,C8166,,1.59 µM
C#Cc1ccc(Nc2nccc(Oc3c(C)cc(-c4cn(Cc5cccc([N+](=O)[O-])c5)nn4)cc3C)n2)cc1,L100I,,MTT,MT-4,IIIB,9.45 µM
Cc1cc(NS(C)(=O)=O)ccc1N1C(=O)c2ccc(Cl)cc2C1=O,,,MTT / absorbance,MT-4,IIIB,0.008 µM
Cc1ccc(S(=O)(=O)N(CC(C)C)C[C@@H](O)[C@H](Cc2ccccc2)NC(=O)O[C@H]2CO[C@H]3OCC[C@H]32)cc1,8374-P62 GS-8374-resistant,,ATP,MT-2,IIIB,0.0138 µM
CC(C)Nc1cccnc1N1CCN(C(=O)c2cc3cc(NS(C)(=O)=O)ccc3[nH]2)CC1,RT-L74V,,cytopathic effect,MT-4,AJ-05.93 (HXB2(RT-L74V)),0.144 µM
Cc1cn([C@H]2C[C@H](N=[N+]=[N-])[C@H](CO)O2)c(=O)[nH]c1=O,,,MTT / syncytia,MT-4,IIIB,>1000 µM
COc1ccc(S(=O)(=O)N(CC(C)C)C[C@@H](O)[C@H](Cc2ccccc2)NC(=O)O[C@H]2CO[C@@H]3O[C@H]4OCC[C@H]4[C@@H]32)cc1,,,p24 / luminescence,PBMC,ERS104pre,0.3474 µM
Nc1ccn([C@H]2CC[C@@H](CO)O2)c(=O)n1,,,cytopathic effect,MT-4,LZ-05.95,1.8 µM

A second listing of 5 rows from above:

SMILES,mutations,conditions,read by,cell line,strain,result
CC(C)Nc1cccnc1N1CCN(C(=O)c2cc3cc(NS(C)(=O)=O)ccc3[nH]2)CC1,RT-L74V,,cytopathic effect,MT-4,AJ-05.93 (HXB2(RT-L74V)),0.144 µM
C=CC(C)(C)c1cc2cc(C[C@@H](O)C(C)(C)O)c(O)cc2oc1=O,,,MTT / syncytia,C8166,,0.68 µM
Cc1cn([C@H]2C[C@H](N=[N+]=[N-])[C@@H](CO)O2)c(=O)[nH]c1=O,Y188L,,MTT,MT-4,IIIB,0.007 µM
CC(C)=CCc1cc2ccc(=O)oc2c(CC=C(C)C)c1O,,,MTT / syncytia,C8166,,1.59 µM
Cc1cn([C@H]2C[C@H](N=[N+]=[N-])[C@@H](CO)O2)c(=O)[nH]c1=O,,,cytopathic effect / XTT,PBMC,CLADE B,0.001 µM